Measured values from several laboratories, pooled; numbers as filed in NIAID ChemDB.

Shared fields: whole-cell or culture tests; agent: HIV-1; cell line: MT-2; read-out: EC50

Rows are shuffled and stem from different studies. An empty or dashed field is not shown. ECn is the concentration giving n% inhibition of infection, replication or growth.

structure | strain | mutations | method | conditions | result
CCCCCCCCCCCCCCCCCCOC[C@H](COP(=O)(O)C(=O)O)OCC | LAI | RT-K65R | p24 | - | 1240 µM
CC(C)C1=C2[C@H]3CC[C@@H]4[C@@]5(C)CC[C@H](OC(=O)CC(C)(C)C(=O)O)C(C)(C)[C@@H]5CC[C@@]4(C)[C@]3(C)CC[C@@]2(C(=O)N2CCC(O)CC2)CC1=O | IIIB | - | RT activity | 30% human serum | <0.199 µM
CC(C)CN(C[C@@H](O)[C@H](Cc1ccccc1)NC(=O)[C@@H](NC(=O)CNC(C)(C)c1cccc(F)c1)C(C)C)S(=O)(=O)c1ccc(N)cc1 | RF | - | - | - | <1 µM
CC(C)C1=C2[C@H]3CC[C@@H]4[C@@]5(C)CC[C@H](OC(=O)[C@H]6C[C@@H](C(=O)O)C6(C)C)C(C)(C)[C@@H]5CC[C@@]4(C)[C@]3(C)CC[C@@]2(CC(=O)N[C@@H](CO)CNC(=O)c2ccc(Cl)cc2)CC1=O | 92HT599 | - | p24 / ELISA | - | <1 µM
CC(C)C1=C2[C@H]3CC[C@@H]4[C@@]5(C)CC[C@H](OC(=O)CC(C)(C)C(=O)O)C(C)(C)[C@@H]5CC[C@@]4(C)[C@]3(C)CC[C@@]2(C(=O)N2CCNCC2)CC1=O | IIIB | - | RT activity | 30% human serum | <0.199 µM
[2H]C(CN)(CNC[C@H](O)[C@@]12CC[C@]3(C)[C@H](CC[C@@H]4[C@@]5(C)CC[C@H](OC(=O)[C@H]6C[C@@H](C(=O)O)C6(C)C)C(C)(C)[C@@H]5CC[C@]43C)C1=C(C(C)C)C(=O)C2)NC(=O)c1ccc(Cl)cc1 | 92HT599 | - | p24 / ELISA | - | <1 µM
CC(C)CN(C[C@@H](O)[C@H](Cc1ccccc1)NC(=O)[C@@H](NC(=O)CNC(C)(C)c1ccccc1)C(C)(C)C)S(=O)(=O)c1ccc2nc(N)sc2c1 | RF | - | - | - | <1 µM
CC(C)C1=C2[C@H]3CC[C@@H]4[C@@]5(C)CC[C@H](OC(=O)CC(C)(C)C(=O)O)C(C)(C)[C@@H]5CC[C@@]4(C)[C@]3(C)CC[C@@]2(C(=O)NC2CCN(C(=O)OC(C)(C)C)CC2)CC1=O | IIIB | - | RT activity | 30% human serum | <0.199 µM
CC(C)C1=C2[C@H]3CC[C@@H]4[C@@]5(C)CC[C@H](OC(=O)[C@H]6C[C@@H](C(=O)O)C6(C)C)C(C)(C)[C@@H]5CC[C@@]4(C)[C@]3(C)CC[C@@]2([C@@H](O)CNCC(C)(C)NC(=O)c2nccs2)CC1=O | 92HT599 | - | p24 / ELISA | - | <1 µM
Nc1nc2c(ncn2[C@H]2C=C[C@@H](CO)C2)c(=O)[nH]1 | IIIB | - | cytopathic effect / XTT | - | 0.15 µg/mL
CCCCN1C(=O)N(Cc2ccc3[nH]nc(N)c3c2)[C@H](Cc2ccccc2)[C@H](O)[C@@H](O)[C@H]1Cc1ccccc1 | - | PR-V82F I84V | plaque count | - | <1.79 µM
C=C(C)[C@@H]1CC[C@]2(C(=O)NC(C)(C)CN3CCN(CC)CC3)CC[C@]3(C)[C@H](CC[C@@H]4[C@@]5(C)CC[C@H](OC(=O)CC(C)(C)C(=O)O)C(C)(C)[C@@H]5CC[C@]43C)[C@@H]12 | 92HT599 | - | p24 | 40% human serum | ≤0.05 µM
OC[C@@H]1C=C[C@H](n2cnc3c(=S)nc[nH]c32)C1 | IIIB | - | cytopathic effect / XTT | - | >10 µg/mL
CC(C)C1=C2[C@H]3CC[C@@H]4[C@@]5(C)CC[C@H](OC(=O)[C@H]6C[C@@H](C(=O)O)C6(C)C)C(C)(C)[C@@H]5CC[C@@]4(C)[C@]3(C)CC[C@@]2([C@@H](O)CNCc2ccc3c(c2)OCO3)CC1=O | 92HT599 | - | p24 / ELISA | - | <1 µM
CC(C)CN(C[C@@H](O)[C@H](Cc1ccccc1)NC(=O)[C@@H](NC(=O)CNC(C)(C)c1ccccc1)C(C)(C)C)S(=O)(=O)c1ccc(N)cc1 | RF | - | - | - | <1 µM
COc1cnc(-n2cnc(C)n2)c2[nH]cc(C(=O)C(=O)N3CCc4c(-c5ccccc5)ncnc4N3C)c12 | LAI | - | luciferase / reporter gene | - | <0.5 µM
CC(C)C1=C2[C@H]3CC[C@@H]4[C@@]5(C)CC[C@H](OC(=O)[C@H]6C[C@@H](C(=O)O)C6(C)C)C(C)(C)[C@@H]5CC[C@@]4(C)[C@]3(C)CC[C@@]2(CCNCC(C)(C)N)CC1=O | 92HT599 | - | p24 / ELISA | - | <1 µM
Nc1ncnc2c1ncn2[C@@H]1O[C@@H](CO)[C@H](OCP(=O)(O)O)[C@H]1O | IIIB | - | cytopathic effect / XTT | - | >200 µM
CC(C)C1=C2[C@H]3CC[C@@H]4[C@@]5(C)CC[C@H](OC(=O)[C@H]6C[C@@H](C(=O)O)C6(C)C)C(C)(C)[C@@H]5CC[C@@]4(C)[C@]3(C)CC[C@@]2(CC(=O)NCC(C)(CO)NC(=O)c2ccc(Cl)cc2)CC1=O | 92HT599 | - | p24 / ELISA | - | <1 µM
COc1cnc(-n2cnc(C)n2)c2[nH]cc(C(=O)C(=O)N3CC/C(=C(/C#N)c4ccccc4)CN3C)c12 | LAI | - | luciferase / reporter gene | - | 0.4456 µM
CC(C)CN(C[C@@H](O)[C@H](Cc1ccccc1)NC(=O)[C@@H](NC(=O)CNC(C)(C)c1cccc(F)c1)C(C)C)S(=O)(=O)c1ccc2ncsc2c1 | RF | - | - | - | <1 µM
CC(C)C1=C2[C@H]3CC[C@@H]4[C@@]5(C)CC[C@H](OC(=O)CC(C)(C)C(=O)O)C(C)(C)[C@@H]5CC[C@@]4(C)[C@]3(C)CC[C@@]2(C(=O)Nc2ccccn2)CC1=O | IIIB | - | RT activity | 30% human serum | <0.199 µM
N#C/C(=C1\CCN(C(=O)C(=O)c2c[nH]c3c(-n4ccnn4)ncc(F)c23)NC1)c1ccccc1 | LAI | - | luciferase / reporter gene | - | <0.5 µM
CC(C)CN(C[C@@H](O)[C@H](Cc1ccccc1)NC(=O)[C@@H](NC(=O)CNC(C)(C)c1ccccc1)C(C)(C)C)S(=O)(=O)c1ccc2ncsc2c1 | RF | - | - | - | <1 µM
Nc1nc(Cl)c2ncn([C@H]3C=C[C@@H](CO)C3)c2n1 | IIIB | - | cytopathic effect / XTT | - | 0.41 µg/mL
CC(C)CN(C[C@@H](O)[C@H](Cc1ccccc1)NC(=O)[C@@H](NC(=O)CNC(C)(C)c1cccc(F)c1)C(C)(C)C)S(=O)(=O)c1ccc2nc(N)sc2c1 | RF | - | - | - | <1 µM
Nc1ncnc2c1ncn2[C@@H]1C[C@H](OCP(=O)(O)O)CO1 | IIIB | - | cytopathic effect / XTT | - | >200 µM

A second listing of 2 rows from above:

structure | strain | mutations | method | conditions | result
CC(C)CN(C[C@@H](O)[C@H](Cc1ccccc1)NC(=O)[C@@H](NC(=O)CNC(C)(C)c1cccc(F)c1)C(C)C)S(=O)(=O)c1ccc(N)cc1 | RF | - | - | - | <1 µM
CC(C)C1=C2[C@H]3CC[C@@H]4[C@@]5(C)CC[C@H](OC(=O)[C@H]6C[C@@H](C(=O)O)C6(C)C)C(C)(C)[C@@H]5CC[C@@]4(C)[C@]3(C)CC[C@@]2(CC(=O)N[C@@H](CO)CNC(=O)c2ccc(Cl)cc2)CC1=O | 92HT599 | - | p24 / ELISA | - | <1 µM